Results on 4 compounds are retold here after article PMC8126080, “Three Small Molecule Entities (MPK18, MPK334 and YAK308) with Activity against Haemonchus contortus In Vitro” (Molecules, 2021).

For some of these results: Which two values form the index is not stated here.

Series [1] deals with exsheathed third-stage larvae (xL3) / fourth-stage larvae (L4) of Haemonchus contortus. Put plainly: Dose-response assay, inhibition of larval development (xL3 to L4) and phenotype over 7 days. The series is classed as cell-based. As to conditions: selectivity index from CC50 (HepG2) and IC50 (L4 development). The procedure: (§1) Haemonchus contortus (Haecon-5 strain) was maintained in experimental sheep, in accordance with institutional animal ethics approval (permit no. 1714374; The University of Melbourne). Helminth-free Merino sheep (male; eight months of age) were inoculated orally with 7000 third-stage larvae (L3s) of H. contortus. Faecal samples containing H. contortus eggs were collected every day from 21 days following inoculation. These samples were incubated at 27 °C for one week to produce L3s, which were harvested and sieved through two layers of nylon mesh ([…] pore size; Rowe Scientific, Australia) to remove debris and dead larvae, and then stored at 11 °C for up to 6 months until use. To produce exsheathed third-stage larvae (xL3s) for in vitro assays, L3s were incubated in 0.15% (v/v) sodium hypochlorite for 20 min at 37 °C followed by five washes in 0.9% sterile saline by centrifugation at 600× g (5 min) at room temperature (22–24 °C).
Following the measurement of larval motility at 72 h, plates containing xL3s were incubated for four more days at 38 °C [10% (v/v) CO2 and >90% relative humidity] to test the active compounds (MPK18, MPK334 and YAK308) for their effect on the larval development over 7 days. Subsequently, worms were fixed in 1% iodine, and the rate of larval development was assessed microscopically appraising the presence (L4) or absence (xL3) of mouth and pharynx, and direct comparison with negative (untreated) controls (LB* + 0.5% DMSO). Thirty worms from each well were examined at 50-times magnification, and the number of L4s was expressed as a percentage of the total number. Assays were performed in triplicate, three times, on separate days. To establish IC50 values, compound concentrations were log10-transformed, fitted using a variable slope four-parameter equation with constraining the top value to 100% using a least squares (ordinary) fit model using GraphPad Prism (v. 9.0.2) software.

In series [2] the test system is exsheathed third-stage larvae (xL3) of Haemonchus contortus. As to the kind of experiment: Dose-response assay, inhibition of larval motility. The series is classed as cell-based. As to conditions: selectivity index from CC50 (HepG2) and IC50 (xL3 motility). How it is done:
as §1
Three compounds (designated MPK18, MPK334 and YAK308) shown to have activity against H. contortus in the primary screen were evaluated for their potency by estimating their half maximal inhibitory concentrations (IC50), calculated in a dose-response assay. In brief, compounds were titrated (18-points, 2-fold serial dilution in 50 μL of LB*, 100 µM down to 0.76 nM), in 96-well microtitre plates and xL3s were dispensed in 50 µL at a density of ~300 per well. All plates were incubated at 38 °C and 10% (v/v) CO2 with >90% humidity. After 72 h of incubation, a video recording (5 s) was taken of each well in the same camera settings as the primary screen (see Section 3.3), and larval motility measured. The motility index (Mi) was calculated from video data using the unique algorithm written in a custom macro, and analysed through the program ImageJ (v.2.0.0, Fiji). Mi data were normalised to a percentage compared with negative control (LB* + 0.5% DMSO). Monepantel and moxidectin were diluted in the same manner, and used as positive control compounds. Assays were performed in triplicate, three times, on separate days. […]

On to `COc1cc(OC)cc(C(=O)Nc2nc(-c3ccccc3)cs2)c1` [YAK308], for which the “SI L4 Development” value in series [1] is 16.1. With `C[C@](C#N)(COc1cc(C#N)ccc1C(F)(F)F)NC(=O)c1ccc(SC(F)(F)F)cc1` [Monepantel, monepantel, reference compound], the “SI L4 Development” value in series [1] was determined as 250. In addition, the “SI xL3 Motility” value in series [2] stood at 166. On to `CO/N=C1\C[C@]2(C[C@@H]3C[C@@H](C/C=C(\C)C[C@@H](C)/C=C/C=C4\CO[C@@H]5[C@H](O)C(C)=C[C@@H](C(=O)O3)[C@]45O)O2)O[C@H](/C(C)=C/C(C)C)[C@H]1C` [Moxidectin, moxidectin, reference compound], for which, in series [1], the “SI L4 Development” value stood at 8.1. Further, the “SI xL3 Motility” value in series [2] is on record as 125. In the same order, the values of `O=C(/C=C/c1ccccc1)c1ccc(Br)cc1O` [MPK334] are 8.1 and 5.8.
